Assay results as given in paper PMC10764958, “TRIM28-mediated nucleocapsid protein SUMOylation enhances SARS-CoV-2 virulence” (2024).

Biological target: non-SUMOylated SARS2-NP K65R, purified from HEK293F cells, SARS-CoV-2, P0DTC9 1-419

Q: Which result does the source give for “AF488-labeled SARS2-NP (ligand of the MST of Fig. 2g) K65R; Alexa Fluor 488 maleimide on a C-terminal cysteine” here?
A: binds
